Anti-infective test results gathered from many reports (values: NIAID ChemDB through PubChem).

Common to all: cytotoxicity tests; cells: MT-4; read-out: CC50

Conditions beyond the fields shown may differ between rows. CCn: concentration that lowers growth or viability of the cells by n%.

{"structure": "Cc1cc(C#Cc2cccc(N)c2)cc(C)c1Oc1ccnc(NC2CCN(Cc3ccc(C(N)=O)cc3)CC2)n1", "read by": "MTT", "value": "0.198 µM"}
{"structure": "C=C(C)[C@]12C[C@@H](C)C34OC(/C=C/C=C/CCCCCCCCCC)(OC1C3[C@@H]1O[C@]1(CO)[C@@H](O)[C@]1(O)C(=O)C(C)=CC41)O2", "value": "16.7 µM"}
{"structure": "Cc1cn([C@H]2C[C@H](N=[N+]=[N-])[C@@H](CO)O2)c(=O)[nH]c1=O", "value": "1.9 µM"}
{"structure": "N#Cc1ccc(Nc2nc(Oc3ccc(-c4ccc(C#N)cc4)cc3C(F)(F)F)c3sccc3n2)cc1", "read by": "MTT", "value": ">243.6 µM"}
{"structure": "Nc1ccn([C@]2(c3ccccc3)C[C@@H]2COCP(=O)(O)O)c(=O)n1", "value": ">100 µM"}
{"structure": "O=c1c2ccccc2[se]n1-c1ccccc1", "read by": "MTT", "value": ">20 µg/mL"}
{"structure": "O=S(=O)(O)OCC1OC2OC3C(COS(=O)(=O)O)OC(OC4C(COS(=O)(=O)O)OC(OC5C(COS(=O)(=O)O)OC(OC6C(COS(=O)(=O)O)OC(OC7C(COS(=O)(=O)O)OC(OC8C(COS(=O)(=O)O)OC(OC1C(OS(=O)(=O)O)C2OS(=O)(=O)O)C(OS(=O)(=O)O)C8OS(=O)(=O)O)C(OS(=O)(=O)O)C7OS(=O)(=O)O)C(OS(=O)(=O)O)C6OS(=O)(=O)O)C(OS(=O)(=O)O)C5OS(=O)(=O)O)C(OS(=O)(=O)O)C4OS(=O)(=O)O)C(OS(=O)(=O)O)C3OS(=O)(=O)O", "value": ">125 µg/mL"}
{"structure": "CC(C)=CCN1Cc2c(C)ccc3[nH]c(=S)n(c23)C[C@@H]1C", "value": "22 µg/mL"}
{"structure": "Cc1cc(Br)c(Nc2ccnc(Nc3ccc(C#N)cc3)n2)c(Br)c1", "value": "0.1 µM"}
{"structure": "CCC(=CCN1Cc2cc(Cl)cc3[nH]c(=S)n(c23)C[C@@H]1C)CC", "value": "5.2 µg/mL"}
{"structure": "O=C(NCCCN1CCCN(CCCNC(=O)OCc2ccccc2)CCN(CCCNC(=O)OCc2ccccc2)CCCN(CCCNC(=O)OCc2ccccc2)CC1)OCc1ccccc1", "value": "50 µM"}
{"structure": "Nc1nc2c(ncn2CC2CN2CP(=O)(O)O)c(=O)[nH]1", "read by": "MTT", "value": ">100 µM"}
{"structure": "Cc1cc(C#Cc2ccc(C(F)(F)F)cc2)cc(C)c1Oc1ccnc(Nc2ccc(C#N)cc2)n1", "read by": "MTT", "value": "7.353 µM"}
{"structure": "CO[C@H]1O[C@@H](n2ccc(=O)[nH]c2=O)C[C@@H]1N=[N+]=[N-]", "value": ">150 µM"}
{"structure": "CC(C)=CCc1c(O)cc2c(c1O)C(=O)C[C@@H](c1ccc(O)cc1)O2", "value": "32 µg/mL"}
{"structure": "O=C(Nc1cc(-c2ccc3c(c2)CCCC3)[nH]n1)c1ccc(-c2ccncc2)s1", "value": ">30 µM"}
{"structure": "COc1ccc(CSc2nc(Cc3c(Cl)cccc3Cl)c(C)c(=O)[nH]2)cc1OC", "read by": "MTT", "value": ">55 µM"}
{"structure": "CC(C)CC(NC(=O)C(Cc1ccccc1)NC(=O)C(N)CO)C(=O)NC(C(=O)O)C(C)O", "value": ">210 µM"}
{"structure": "Cc1ccc(/C=C/c2cc(C)c(Oc3ccnc(Nc4ccc(C#N)cc4)n3)c(C)c2)cc1", "read by": "MTT", "value": "8.51 µM"}
{"structure": "Nc1nccc2c1ncn2[C@@H]1C=C(CO)[C@@H](O)[C@H]1O", "value": "0.072 µM"}
{"structure": "CC(C)OP(=O)(COC[C@H]1C[C@@]1(c1ccccc1)n1ccc(=O)[nH]c1=O)OC(C)C", "value": ">100 µM"}
{"structure": "Cc1cn([C@H]2C[C@H](N=[N+]=[N-])[C@@H](CO)O2)c(=O)[nH]c1=O", "value": ">1 µg/mL"}
{"structure": "N#Cc1ccc(Nc2nc(Oc3ccc(-c4ccc(C#N)cc4)c(Cl)c3)c3sccc3n2)cc1", "read by": "MTT", "value": ">261 µM"}
{"structure": "CC(C)=CCc1c(O)ccc(C(=O)/C=C/c2ccc(O)cc2)c1O", "value": "13 µg/mL"}
{"structure": "O=C1C=C2C(C3CC4=C(C5CC6=C(C7CC8=CC(=O)O[C@@]89C[C@@H]7N7CCCC79)C(=O)O[C@@]67C[C@@H]5N5CCCC57)C(=O)O[C@@]45C[C@@H]3N3CCCC35)=C[C@@H]3C[C@@]2(O1)C1CCCN13", "read by": "MTT", "value": ">100 µM"}
{"structure": "O=c1c(O)c(-c2ccc(O)c(O)c2)oc2cc(O)ccc12", "value": ">12.5 µg/mL"}
{"structure": "Cc1cc(C#Cc2ccccc2)cc(C)c1Oc1ccnc(NC2CCN(Cc3ccc(S(N)(=O)=O)cc3)CC2)n1", "read by": "MTT", "value": "0.766 µM"}
{"structure": "Cc1cc(C#N)cc(C)c1Oc1nc(Nc2ccc(C#N)cc2)nc(N)c1Br", "value": ">100 µM"}
{"structure": "Cc1cn([C@H]2C[C@H](N=[N+]=[N-])[C@@H](CO)O2)c(=O)[nH]c1=O", "value": ">30 µg/mL"}
{"structure": "Cc1cc(N=Cc2ccc(Cl)cc2)ccc1N1C(=O)c2ccc(Cl)cc2C1=O", "read by": "MTT / absorbance", "value": "0.327 µM"}
{"structure": "O=c1[nH]cnc2c1ncn2[C@H]1CC[C@@H](CO)O1", "read by": "MTT", "value": ">50 µg/mL"}
{"structure": "CCN(CC)C(=O)N1CCN(C(=O)N2CCOCC2)CC1", "read by": "MTT", "value": ">125 µg/mL"}
{"structure": "Cc1cc(C#Cc2ccccc2)cc(C)c1Oc1ccnc(Nc2ccc(C#N)cc2)n1", "read by": "MTT", "value": "12.5 µM"}
{"structure": "N#Cc1ccc(Nc2nc(Oc3ccc(-c4ccc(C#N)cc4)cc3C#N)c3sccc3n2)cc1", "read by": "MTT", "value": ">265.9 µM"}
{"structure": "O=C(OC[C@@H]1CC[C@H](n2cnc3c(=O)[nH]cnc32)O1)C(=O)N1CCCC1C(=O)N[C@H](Cc1ccccc1)C(=O)OCc1ccccc1", "value": ">150 µM"}
{"structure": "Cc1cc(C#Cc2cccc(N)c2)cc(C)c1Oc1ccnc(NC2CCN(Cc3ccc(C#N)cc3)CC2)n1", "read by": "MTT", "value": "0.261 µM"}
{"structure": "Cc1c(Cc2c(Cl)cccc2Cl)nc(SCc2cccc(C#N)c2)[nH]c1=O", "read by": "MTT", "value": ">60 µM"}
{"structure": "CC(C)=CCc1c(O)cc2occ(-c3cc(O)c4c(c3)C=CC(C)(C)O4)c(=O)c2c1O", "value": "14 µg/mL"}
{"structure": "Nc1ncnc2c1ncn2[C@]1(c2ccccc2)C[C@@H]1COCP(=O)(O)O", "value": ">100 µM"}
{"structure": "COc1ccc(-c2oc3c4c(cc(O)c3c(=O)c2CC=C(C)C)OC(C)(C)C=C4)c(OC)c1", "value": ">500 µg/mL"}
{"structure": "Cc1cc(NS(=O)(=O)c2ccc([N+](=O)[O-])cc2)ccc1N1C(=O)c2ccc(Cl)cc2C1=O", "read by": "MTT / absorbance", "value": "0.2 µM"}
{"structure": "COc1ccccc1CNC(=O)c1ccn(Cc2ccc(Cl)cc2)n1", "read by": "ATP / luminescence", "value": ">50 µM"}
{"structure": "Cc1c(Sc2ccccc2)n(COCCO)c(=O)[nH]c1=O", "value": "740 µM"}
{"structure": "O=c1[nH]cnc2c1ncn2[C@H]1CC[C@@H](CO)O1", "value": ">150 µM"}
{"structure": "CCN[C@H]1CO[C@@H]2OCC[C@H](OC(=O)N[C@@H](Cc3ccccc3)[C@H](O)CN(CC(C)C)S(=O)(=O)c3ccc4nc(NC5CC5)sc4c3)[C@@H]21", "read by": "MTT", "value": "40 µM"}
{"structure": "C1CNCCNCCCN(CCCN2CCCNCCNCCCNCC2)CCNC1", "value": ">125 µg/mL"}
{"structure": "CC1=CC[C@H](C(=O)N(c2cc(C#CC(C)(C)C)sc2C(=O)O)C2CCC(O)(CO[C@H]3CCOC3)CC2)CC1", "read by": "luminescence", "value": "42.8 µM"}
{"structure": "Cc1cn([C@H]2C[C@H](N=[N+]=[N-])[C@@H](COC(=O)c3ccc[n+](C)c3)O2)c(=O)[nH]c1=O", "value": "47 µM"}
{"structure": "Cc1cn([C@H]2C[C@H](N=[N+]=[N-])[C@@H](CO)O2)c(=O)[nH]c1=O", "value": "1.15 µM"}
{"structure": "Cc1cc(NS(=O)(=O)c2ccc(Cl)cc2)ccc1N1C(=O)c2ccc(Cl)cc2C1=O", "read by": "MTT / absorbance", "value": "0.22 µM"}
{"structure": "C[C@H]1Cn2c(=O)[nH]c3cc(Cl)cc(c32)CN1CCC1CC1", "value": ">250 µg/mL"}
{"structure": "O=C(Nc1cc(-c2ccc3c(c2)CCCC3)[nH]n1)c1ccc(-c2cncnc2)s1", "value": ">30 µM"}
{"structure": "Cc1cc(NS(C)(=O)=O)ccc1N1C(=O)c2ccc(Cl)cc2C1=O", "read by": "MTT / absorbance", "value": "0.269 µM"}
{"structure": "CCCCOC(=O)N1CCN(C(=O)N(C)C)CC1", "read by": "MTT", "value": "39.3 µg/mL"}
{"structure": "Cc1c(Cc2c(F)cccc2F)nc(SCc2ccc([N+](=O)[O-])cc2)[nH]c1=O", "read by": "MTT", "value": ">62 µM"}
{"structure": "Cc1cc(NS(=O)(=O)c2c(C(C)C)cc(C(C)C)cc2C(C)C)ccc1N1C(=O)c2ccc(Cl)cc2C1=O", "read by": "MTT / absorbance", "value": "0.18 µM"}
{"structure": "CC(=O)Oc1ccc(/C=C/C(=O)O[C@H](C(=O)O)[C@H](OC(=O)/C=C/c2ccc(OC(C)=O)c(OC(C)=O)c2)C(=O)O)cc1OC(C)=O", "read by": "XTT", "value": "60 µM"}
{"structure": "C=C(COCP(=O)(O)O)Cn1cnc2c(=O)[nH]c(N)nc21", "value": ">100 µM"}
{"structure": "Cc1cc(C)c(Nc2ccnc(Nc3ccc(C#N)cc3)n2)c(C)c1", "value": "2.512 µM"}
{"structure": "NCCCCCCN1CCCN(CCCCCCN)CCN(CCCCCCN)CCCN(CCCCCCN)CC1", "value": "50 µM"}
{"structure": "CC(C)=CCN1Cc2cccc3[nH]c(=S)n(c23)C[C@@H]1C", "value": "325 µg/mL"}
{"structure": "Cc1cccc(C)c1OCC(=O)N[C@@H](Cc1ccccc1)[C@@H](O)C[C@H](Cc1ccccc1)NC(=O)[C@H](C(C)C)N1CCCNC1=O", "read by": "MTT", "value": "60 µM"}
{"structure": "CCN(CC)C(=O)N1CCN(C(=O)N2CCCC2)CC1", "read by": "MTT", "value": ">125 µg/mL"}
{"structure": "Cc1cc(C#Cc2ccc(C(=O)O)cc2)cc(C)c1Oc1ccnc(Nc2ccc(C#N)cc2)n1", "read by": "MTT", "value": "25 µM"}
{"structure": "CCN[C@H]1CO[C@@H]2OCC[C@H](OC(=O)N[C@@H](Cc3cccc(OC)c3)[C@H](O)CN(CC(C)C)S(=O)(=O)c3ccc4nc(NC(C)C)sc4c3)[C@@H]21", "read by": "MTT", "value": "38 µM"}
{"structure": "Nc1ccn(CC2CN2CP(=O)(O)O)c(=O)n1", "read by": "MTT", "value": ">100 µM"}
{"structure": "C[C@H](Cn1cnc2c(N)ncnc21)OCP(=O)(O)O", "value": ">100 µM"}
{"structure": "Cc1cn([C@H]2C[C@H](N=[N+]=[N-])[C@@H](COC(=O)c3cccnc3)O2)c(=O)[nH]c1=O", "value": "99 µM"}
{"structure": "COc1cc(CSc2nc(Cc3c(F)cccc3F)c(C)c(=O)[nH]2)cc(OC)c1", "read by": "MTT", "value": ">60 µM"}
{"structure": "CCCCNC(=S)N/N=C(\\C)c1nc2ccc(Cl)cc2[nH]1", "read by": "MTT", "value": "1.76 µg/mL"}
{"structure": "C=CC1=C(C)C(/C=c2/[nH]/c(=C/c3[nH]c(/C=C4/NC(=O)C(C)=C4C=C)c(C)c3CCC(=O)O)c(CCC(=O)O)c2C)=NC1=O", "value": ">800 µg/mL"}
{"structure": "O=C(NC(=S)Nc1ccc(Br)cn1)c1ccccc1[N+](=O)[O-]", "read by": "MTT", "value": ">100 µM"}
{"structure": "O=C(NCCCCCN1CCCN(CCCCCNC(=O)OCc2ccccc2)CCN(CCCCCNC(=O)OCc2ccccc2)CCCN(CCCCCNC(=O)OCc2ccccc2)CC1)OCc1ccccc1", "value": "10 µM"}

For reference, 7 entries again:

{"structure": "CC(C)=CCN1Cc2cccc3[nH]c(=S)n(c23)C[C@@H]1C", "value": "325 µg/mL"}
{"structure": "O=c1c2ccccc2[se]n1-c1ccccc1", "read by": "MTT", "value": ">20 µg/mL"}
{"structure": "O=c1[nH]cnc2c1ncn2[C@H]1CC[C@@H](CO)O1", "value": ">150 µM"}
{"structure": "Cc1cn([C@H]2C[C@H](N=[N+]=[N-])[C@@H](CO)O2)c(=O)[nH]c1=O", "value": ">1 µg/mL"}
{"structure": "Cc1cc(NS(=O)(=O)c2c(C(C)C)cc(C(C)C)cc2C(C)C)ccc1N1C(=O)c2ccc(Cl)cc2C1=O", "read by": "MTT / absorbance", "value": "0.18 µM"}
{"structure": "O=c1[nH]cnc2c1ncn2[C@H]1CC[C@@H](CO)O1", "read by": "MTT", "value": ">50 µg/mL"}
{"structure": "Cc1c(Sc2ccccc2)n(COCCO)c(=O)[nH]c1=O", "value": "740 µM"}